Earlier results as cited in paper PMC8284440, “Toward New Transmission-Blocking Combination Therapies: Pharmacokinetics of 10-Amino-Artemisinins and 11-Aza-Artemisinin and Comparison with Dihydroartemisinin and Artemether” (Antimicrobial Agents and Chemotherapy, 2021).

Assays:
[1] = system: Chinese hamster ovary (CHO) cells; details: selectivity index; ref 1 and 2 (supplement; main text 47, 48); cited from earlier work
HepG2 = details: ref 2 (supplement; main text 48); cited from earlier work

Structure (SMILES)	SI (EC50 CHO/IC50 NF54) [1]	SI (EC50 HepG2/IC50 P. berghei sporozoites) (HepG2)
C[C@H]1[C@H](N2CCN(C(=O)Nc3ccc(F)cc3)CC2)O[C@@H]2O[C@@]3(C)CC[C@H]4[C@H](C)CC[C@@H]1[C@@]24OO3 [Arylurea 10]	156923	48.9
O=C1C(O)=C([C@H]2CC[C@H](c3ccc(Cl)cc3)CC2)C(=O)c2ccccc21 [Atovaquone]	–	> 100
COc1ccc(C[C@H](N)C(=O)N[C@H]2[C@@H](O)[C@H](n3cnc4c(N(C)C)ncnc43)O[C@@H]2CO)cc1 [Puromycin, reference compound]	–	5.15
